A mixed list of measured activities; the numbers were collected in NIAID ChemDB.

Common to all: tests in culture; agent: HIV-1; read by: RT activity; read-out: EC50

Neighbouring rows are from separate reports. ECn is the concentration giving n% inhibition of infection, replication or growth. An empty or dashed field is not shown.

{"structure": "NCCNc1nc(-c2cccs2)cc(-c2cccs2)n1", "strain": "LAV-1", "cells": "PBMC", "value": "2.6 µM"}
{"structure": "O=C(C(=O)N1CCN(C(=O)c2ccc(F)cc2F)CC1)c1c[nH]c2ccccc12", "strain": "BRU", "cells": "MT-2", "value": ">10 µM"}
{"structure": "CCN(CC)C(=O)OCC1CN(Cc2cc(OC)c(OC)c(OC)c2)CCN1Cc1cc(OC)c(OC)c(OC)c1", "strain": "BaL", "cells": "MDM", "value": "<10 µM"}
{"structure": "Cc1nnc(C(=O)N[C@@]23CC[C@]4(C)C(CCC5[C@@]6(C)CC[C@H](OC(=O)CC(C)(C)CC(=O)O)C(C)(C)C6CC[C@]54C)C2=C(C(C)C)C(=O)C3)o1", "conditions": "30% human serum", "strain": "IIIB", "cells": "MT-2", "value": "<0.199 µM"}
{"structure": "O=[N+]([O-])c1ccc(O)c(-c2nc3c4ccccc4c4ccccc4c3[nH]2)c1", "strain": "89BZ167", "cells": "PBMC", "value": "7.1 µM"}
{"structure": "CC(C)C1=C2[C@H]3CC[C@@H]4[C@@]5(C)CC[C@H](OC(=O)CC(C)(C)C(=O)O)C(C)(C)[C@@H]5CC[C@@]4(C)[C@]3(C)CC[C@@]2(NC(=O)c2cnn(C)c2)CC1=O", "conditions": "30% human serum", "strain": "IIIB", "cells": "MT-2", "value": "<0.199 µM"}
{"structure": "CCN(CC)C(=S)N=Nc1c(O)n(C)c2ccccc12", "conditions": "chronic infection", "cells": "H9/HIV-1 + H9", "value": "0.3 µg/mL"}
{"structure": "CCCCCCCCCCCCCCNC(=O)[C@H](CS[C@@H]1O[C@H](COS(=O)(=O)O)[C@H](OS(=O)(=O)O)[C@H](OS(=O)(=O)O)[C@H]1NC(C)=O)NC(=O)CCCCCCCCCCC", "strain": "LAI", "cells": "CEM + CEM-SS", "value": ">10 µM"}
{"structure": "CC(C)(C)NC(=O)[C@@H]1CCCN1C(=O)C(O)[C@H](Cc1ccccc1)NC(=O)OCc1ccccc1", "strain": "C-2", "cells": "MOLT-4", "value": ">40 µM"}
{"structure": "O=c1ccn(CC(F)(F)C(F)(F)C(F)(F)CO)c(=O)[nH]1", "strain": "LAI", "cells": "PBMC", "value": ">100 µM"}
{"structure": "COc1ccc(C(=O)OCc2nc3ccccc3nc2C)c(OC)c1OC", "strain": "89BZ167", "cells": "PBMC", "value": "87.9 µM"}
{"structure": "CC(C)C1=C2[C@H]3CC[C@@H]4[C@@]5(C)CC[C@H](OC(=O)CC(C)(C)C(=O)O)C(C)(C)[C@@H]5CC[C@@]4(C)[C@]3(C)CC[C@@]2(C(=O)Nc2ccncc2)CC1=O", "conditions": "30% human serum", "strain": "IIIB", "cells": "MT-2", "value": "<0.199 µM"}
{"structure": "O=c1ccn(CC(F)(F)C(F)(F)CO)c(=O)[nH]1", "strain": "LAI", "cells": "PBMC", "value": ">100 µM"}
{"structure": "Oc1ccc(-c2nc(-c3ccc(Cl)cc3)c(-c3ccc(Cl)cc3)[nH]2)cc1", "strain": "89BZ167", "cells": "PBMC", "value": "13.3 µM"}
{"structure": "CCCc1cc(=O)oc2c3c(c4c(c12)OC(C)(C)CC4)O[C@@H](C)[C@H](C)[C@@H]3O", "strain": "CLADE B", "cells": "PBMC", "value": "0.4 µM"}
{"structure": "Cc1[nH]c2ccccc2c1C(=O)C(=O)N1CCN(C(=O)c2ccccc2)CC1", "strain": "BRU", "cells": "MT-2", "value": "<10 µM"}
{"structure": "CC(C)[C@@H]1NC(=O)[C@H](C(C)C)N([C@H]2C[C@H](N=[N+]=[N-])[C@@H](CO)O2)C1=O", "strain": "US/92/727", "cells": "PBMC", "value": "1.96 µM"}
{"structure": "CC(C)C1=C2[C@H]3CC[C@@H]4[C@@]5(C)CC[C@H](OC(=O)CC(C)(C)C(=O)O)C(C)(C)[C@@H]5CC[C@@]4(C)[C@]3(C)CC[C@@]2(C(=O)N2CCC(O)CC2)CC1=O", "conditions": "30% human serum", "strain": "IIIB", "cells": "MT-2", "value": "<0.199 µM"}
{"structure": "CCN(CC)C(=O)OCC1CN(C(=O)c2cc(OC)c(OC)c(OC)c2)CCN1Cc1ccccc1", "strain": "BaL", "cells": "MDM", "value": "40 µM"}
{"structure": "N[C@@H](CO[C@@H]1O[C@H](CO)[C@H](O)[C@H](O)[C@H]1O)C(=O)NCCCCCCCCCCCC(F)(F)C(F)(F)C(F)(F)C(F)(F)C(F)(F)C(F)(F)F", "strain": "LAI", "cells": "CEM + CEM-SS", "value": "40 µM"}
{"structure": "c1ccc(CN2CCc3cncn3CC2)cc1", "changes": "RT-Y181C", "strain": "Nevirapine-resistant", "cells": "CEM + CEM-SS", "value": "225 µM"}
{"structure": "CC(C)C1=C2[C@H]3CC[C@@H]4[C@@]5(C)CC[C@H](OC(=O)CC(C)(C)C(=O)O)C(C)(C)[C@@H]5CC[C@@]4(C)[C@]3(C)CC[C@@]2(NC(=O)Nc2cncnc2)CC1=O", "conditions": "30% human serum", "strain": "IIIB", "cells": "MT-2", "value": "<0.199 µM"}
{"structure": "CC(C)[C@@H]1NC(=O)[C@H](C(C)C)N([C@H]2C[C@H](O)[C@@H](CO)O2)C1=O", "strain": "US/92/727", "cells": "PBMC", "value": "74.5 µM"}
{"structure": "O=C(CNC(=O)COc1ccccc1)NCc1ccc(C(=O)N2CCCCC2)cc1", "strain": "BaL", "cells": "PBMC", "value": "27.8 µM"}
{"structure": "CC(C)C1=C2C3CCC4[C@@]5(C)CC[C@H](OC(=O)CC(C)(C)C(=O)O)C(C)(C)C5CC[C@@]4(C)[C@]3(C)CC[C@@]2(NC(=O)N2CCC(N(C)C(=O)OC(C)(C)C)CC2)CC1=O", "conditions": "30% human serum", "strain": "IIIB", "cells": "MT-2", "value": "<0.199 µM"}
{"structure": "COCCNC(=O)[C@@H](NC(=O)[C@H](Cc1ccc(OC)c(OC)c1OC)C[C@H](O)[C@H](Cc1ccccc1)NC(=O)OC(C)(C)C)C(C)C", "strain": "MN", "cells": "MT-2", "value": "0.0052 µM"}
{"structure": "Oc1ccc(-c2nc3c4cc(I)ccc4c4ccccc4c3[nH]2)cc1", "strain": "89BZ167", "cells": "PBMC", "value": "9.44 µM"}
{"structure": "C[C@@H](O)[C@H](N)C(=O)N[C@H](C(=O)N[C@@H](CO)C(=O)N[C@@H](Cc1ccc(O)cc1)C(=O)N[C@H](C(=O)O)[C@@H](C)O)[C@@H](C)O", "strain": "LAV", "cells": "A3.01", "value": "<0.001 µM"}
{"structure": "Nc1nc2c(ncn2CC(F)(F)C(F)(F)C(F)(F)CO)c(=O)[nH]1", "strain": "LAI", "cells": "PBMC", "value": ">100 µM"}
{"structure": "O=C(C(=O)N1CCN(C(=O)c2c(F)cccc2F)CC1)c1c[nH]c2ccccc12", "strain": "BRU", "cells": "MT-2", "value": "<10 µM"}
{"structure": "CN1CCN(CCSCc2ccc(-c3cccc(-c4ccc(CSCCN5CCN(C)CC5)cc4)n3)cc2)CC1", "strain": "LAV-1", "cells": "PBMC", "value": "5.9 µM"}
{"structure": "Cc1cn([C@H]2C[C@H](N=[N+]=[N-])[C@@H](CO)O2)c(=O)[nH]c1=O", "strain": "BaL", "cells": "PBMC", "value": "0.0044 µM"}
{"structure": "CC(C)C1=C2[C@H]3CC[C@@H]4[C@@]5(C)CC[C@H](OC(=O)CC(C)(C)C(=O)O)C(C)(C)[C@@H]5CC[C@@]4(C)[C@]3(C)CC[C@@]2(C(=O)N2C3CCC2CN(C(=O)OC(C)(C)C)C3)CC1=O", "conditions": "30% human serum", "strain": "IIIB", "cells": "MT-2", "value": "<0.199 µM"}
{"structure": "Cc1cn(CC(F)(F)C(F)(F)C(F)(F)CO)c(=O)[nH]c1=O", "strain": "LAI", "cells": "PBMC", "value": ">100 µM"}
{"structure": "CCN(CC)C(=O)OCC1CN(C(=O)c2ccc(OC)cc2OC)CCN1C(=O)c1ccc(OC)cc1OC", "strain": "BaL", "cells": "MDM", "value": ">100 µM"}
{"structure": "CCCCCCCCCCCCCCNC(=O)[C@@H](N)CO[C@@H]1O[C@H](CO)[C@H](O)[C@H](O)[C@H]1NC(C)=O", "strain": "LAI", "cells": "CEM + CEM-SS", "value": ">10 µM"}
{"structure": "C[C@@H](O)[C@H](N)C(=O)N[C@H](C(=O)N[C@@H](CC(N)=O)C(=O)N[C@@H](Cc1ccc(O)cc1)C(=O)N[C@H](C(=O)O)[C@@H](C)O)[C@@H](C)O", "strain": "LAV", "cells": "A3.01", "value": "<0.001 µM"}
{"structure": "COC(=O)c1ccc(C(=O)OCc2nc3ccccc3nc2C)cc1", "strain": "89BZ167", "cells": "PBMC", "value": ">100 µM"}
{"structure": "CN(C)CCSc1nc(-c2cccs2)cc(-c2cccs2)n1", "strain": "LAV-1", "cells": "PBMC", "value": "48.9 µM"}
{"structure": "CC(C)C1=C2[C@H]3CC[C@@H]4[C@@]5(C)CC[C@H](OC(=O)CC(C)(C)C(=O)O)C(C)(C)[C@@H]5CC[C@@]4(C)[C@]3(C)CC[C@@]2(C(=O)Nc2ccccn2)CC1=O", "conditions": "30% human serum", "strain": "IIIB", "cells": "MT-2", "value": "<0.199 µM"}
{"structure": "CCOC(=O)[C@H](C)NP(=O)(OCC(F)(F)C(F)(F)Cn1cnc2c(=O)[nH]c(N)nc21)Oc1ccccc1", "strain": "LAI", "cells": "PBMC", "value": ">100 µM"}
{"structure": "COc1cc(-c2ccc(Nc3ccccc3C(=O)O)c(OC)c2)ccc1Nc1ccccc1C(=O)O", "strain": "BaL", "cells": "PBMC", "value": "2.94 µM"}
{"structure": "Nc1ncnc2c1ncn2CC(F)(F)C(F)(F)C(F)(F)CO", "strain": "LAI", "cells": "PBMC", "value": ">100 µM"}
{"structure": "Cc1ccc(C(=O)OCc2nc3ccccc3nc2C)cc1O", "strain": "89BZ167", "cells": "PBMC", "value": "27.3 µM"}
{"structure": "CC(C)C1=C2C3CCC4[C@@]5(C)CC[C@H](OC(=O)CC(C)(C)C(=O)O)C(C)(C)C5CC[C@@]4(C)[C@]3(C)CC[C@@]2(NC(=O)N2CCC(F)(F)C2)CC1=O", "conditions": "30% human serum", "strain": "IIIB", "cells": "MT-2", "value": "<0.199 µM"}
{"structure": "CCN(CC)C(=O)OCC1CN(C(=O)c2cc(OC)c(OC)c(OC)c2)CCN1C(=O)c1cc(OC)c(OC)c(OC)c1", "strain": "BaL", "cells": "MDM", "value": "11 µM"}
{"structure": "C[n+]1c(-c2cccc(C(=O)NCCCCCC(=O)NCCC(=O)N[C@@H](CCCN=C(N)N)C(=O)O)c2)c2cc(N)ccc2c2ccc(N)cc21", "strain": "LAI", "cells": "CEM + CEM-SS", "value": "1 µM"}
{"structure": "CC(C)C1=C2C3CCC4[C@@]5(C)CC[C@H](OC(=O)CC(C)(C)C(=O)O)C(C)(C)C5CC[C@@]4(C)[C@]3(C)CC[C@@]2(NC(=O)OC(C)C2CC2)CC1=O", "conditions": "30% human serum", "strain": "IIIB", "cells": "MT-2", "value": "<0.199 µM"}
{"structure": "OCCNc1nc(-c2cccs2)cc(-c2cc3ccccc3s2)n1", "strain": "LAV-1", "cells": "PBMC", "value": "3.1 µM"}
{"structure": "CC(=O)N1CCC(NC(=O)N[C@@]23CC[C@]4(C)C(CCC5[C@@]6(C)CC[C@H](OC(=O)CC(C)(C)C(=O)O)C(C)(C)C6CC[C@]54C)C2=C(C(C)C)C(=O)C3)CC1", "conditions": "30% human serum", "strain": "IIIB", "cells": "MT-2", "value": "<0.199 µM"}
{"structure": "C[C@@H]1NC(=O)[C@H](C)N([C@H]2C[C@H](N=[N+]=[N-])[C@@H](CO)O2)C1=O", "strain": "US/92/727", "cells": "PBMC", "value": "13.7 µM"}
{"structure": "COc1cc(O)c(CC=C(C)C)c(O)c1C(=O)/C=C/c1ccc(O)cc1", "strain": "IIIB", "cells": "C8166", "value": "1.22 µM"}
{"structure": "O=C(C(=O)N1CCN(C(=O)c2cccc(Br)c2)CC1)c1c[nH]c2ccccc12", "strain": "BRU", "cells": "MT-2", "value": "<10 µM"}
{"structure": "COc1cc(C(=O)OCc2nc3ccccc3nc2C)cc(OC)c1OC", "strain": "89BZ167", "cells": "PBMC", "value": ">100 µM"}
{"structure": "CC(C)C1=C2C3CCC4[C@@]5(C)CC[C@H](OC(=O)CC(C)(C)C(=O)O)C(C)(C)C5CC[C@@]4(C)[C@]3(C)CC[C@@]2(NC(=O)NC2CCNCC2)CC1=O", "conditions": "30% human serum", "strain": "IIIB", "cells": "MT-2", "value": ">1 µM"}
{"structure": "Cc1cn([C@H]2C[C@H](N=[N+]=[N-])[C@@H](CO)O2)c(=O)[nH]c1=O", "strain": "Ba-L (R5-tropic)", "cells": "PBMC", "value": "0.0066 µM"}
{"structure": "Cc1cn([C@H]2C[C@H](N=[N+]=[N-])[C@@H](CO)O2)c(=O)n(Cc2ccoc2)c1=O", "strain": "LAI", "cells": "CEM-C113 + CEM/C113", "value": "143 µM"}
{"structure": "Cc1ccc(NC(=O)NCCSCc2ccc(CNC(C)C)o2)cc1Cl", "cells": "MAGI", "value": ">100 µM"}
{"structure": "Nc1ccn([C@@H]2C=C[C@H](CO)O2)c(=O)n1", "changes": "RT-M184V", "cells": "PBMC", "value": "2.9 µM"}
{"structure": "CCCCCCCCCCCCCCNC(=O)[C@@H](N)CS[C@@H]1O[C@H](CO)[C@H](O)[C@H](O)[C@H]1O", "strain": "LAI", "cells": "CEM + CEM-SS", "value": ">27 µM"}
{"structure": "Cc1nc2ccccc2nc1COC(=O)c1ccc2ccccc2c1O", "strain": "BaL", "cells": "PBMC", "value": ">100 µM"}
{"structure": "CCN(CC)C(=O)OCC1CN(C(c2ccccc2)c2ccccn2)CCN1C(=O)c1cc(OC)c(OC)c(OC)c1", "strain": "BaL", "cells": "MDM", "value": ">10 µM"}
{"structure": "CN(C)CCSc1ccc(-c2cc(-c3ccc(SCCN(C)C)cc3)ncn2)cc1", "strain": "LAV-1", "cells": "PBMC", "value": "3.6 µM"}
{"structure": "O=C(C(=O)N1CCN(C(=O)c2ccccc2)CC1)c1c[nH]c2cccc(F)c12", "strain": "BRU", "cells": "MT-2", "value": "<10 µM"}

The last 5 rows once more:

structure | conditions | changes | strain | cells | value
CCCCCCCCCCCCCCNC(=O)[C@@H](N)CS[C@@H]1O[C@H](CO)[C@H](O)[C@H](O)[C@H]1O | - | - | LAI | CEM + CEM-SS | >27 µM
Cc1nc2ccccc2nc1COC(=O)c1ccc2ccccc2c1O | - | - | BaL | PBMC | >100 µM
CCN(CC)C(=O)OCC1CN(C(c2ccccc2)c2ccccn2)CCN1C(=O)c1cc(OC)c(OC)c(OC)c1 | - | - | BaL | MDM | >10 µM
CN(C)CCSc1ccc(-c2cc(-c3ccc(SCCN(C)C)cc3)ncn2)cc1 | - | - | LAV-1 | PBMC | 3.6 µM
O=C(C(=O)N1CCN(C(=O)c2ccccc2)CC1)c1c[nH]c2cccc(F)c12 | - | - | BRU | MT-2 | <10 µM